Target: SARS-CoV-2 PL^Pro (Severe acute respiratory syndrome coronavirus 2, UniProt P0DTD1)
Type: biochemical
Conditions: pH 7.4

## Zn-(N-hydroxyisoquinoline-1-thione) complex [1f]
  IC50: 260 ± 100 nM

Reference: paper PMC9367663 (Journal of Enzyme Inhibition and Medicinal Chemistry, 2022)
